This note sets out measurements from PubChem BioAssay AID488862 (Broad Institute, 2010).

The entries are a selection whose mix differs from that of the whole data set. Calls of active or inactive are those of the source. Rule as the data show it: active = inhibition above about 52%; inactive = the rest.

The test can be described thus: suppresses PrP 5' UTR mRNA reporter expression (AID 488862). Also: 0 = median of the neutral control wells. As to conditions: cell-based PrP 5' UTR mRNA reporter, plate reader; hits give high values; concentration not given here.
What is called inhibition is the drop in the measured response relative to a control, in per cent. Consider `CCC(C)N(CC(C)C)C(=S)SC(NC(C)=O)C(Cl)(Cl)Cl` (stereo not given), for which the inhibition is inactive: -15.8%.
As for `CP(=O)(Nc1ccccn1)Oc1ccc(Cl)cc1` (stereo not given), the figure is inactive: -3.5%; as for `O=C(OC1CN2CCC1CC2)c1cccc([N+](=O)[O-])c1` (stereo not given), inactive: -15.5%; as for `CCOP(C)(=S)SCC(=O)NC(C)C(=O)O` (stereo not given), inactive: -36.5%.
Take `CCOC(=O)c1ccc(NC(=O)C(C)(CCl)SC)cc1` (stereo not given): the inhibition is inactive: -43.2%.
Turning to `CCOC(=O)c1ccc(NP(C)(=O)Oc2ccc(OC)cc2)cc1` (stereo not given), the inhibition was inactive: -38.4%.
Consider `CCc1ccc(OP(C)(=O)N2CCN(c3ccc([N+](=O)[O-])cc3)CC2)cc1` (stereo not given), for which the inhibition is inactive: -10.3%.
As for `CP(=O)(NC(=O)Nc1ccccc1)Oc1ccccc1` (stereo not given), the inhibition is inactive: -13.1%.
`O=C(COc1ccccc1)OC1CN2CCC1CC2` (stereo not given): the inhibition was inactive: -7.66%.
For `O=C(Nc1ccncc1[N+](=O)[O-])c1ccc([N+](=O)[O-])cc1[N+](=O)[O-]`, the inhibition is inactive: -11.2%.
With `Cc1cc(C)cc(OP(C)(=O)Nc2ccc(SC(F)(F)F)cc2)c1` (stereo not given), the inhibition is inactive: -19.3%.
As for `Cc1cccc(C)c1OP(C)(=O)Nc1ccc(SC(F)(F)F)cc1` (stereo not given), the figure is inactive: 1.66%; as for `COP1(=S)c2c(C)nn(CCC#N)c2N=C(c2ccc(F)cc2)N1C` (stereo not given), inactive: -12.9%.
The value for `CP(=O)(Oc1ccccc1)OC(c1ccccc1)C(F)(F)F` (stereo not given) was inactive: -26.4%; that for `Cc1cc(SC(NC=O)C(Cl)(Cl)Cl)ncn1` (stereo not given) was inactive: -1.8%.
Turning to `COc1ccccc1OP(C)(=O)Nc1ccccc1` (stereo not given), the inhibition was inactive: -12.9%.
For `CP(=O)(Nc1ccccc1Br)Oc1ccccc1` (stereo not given), the inhibition was inactive: -12.2%.
As for `O=[N+]([O-])c1ccc(Nc2ccc(Oc3ccc([N+](=O)[O-])cc3[N+](=O)[O-])cc2)c([N+](=O)[O-])c1`, the figure is inactive: -9.86%; as for `CP(=S)(Nn1cnnc1)Oc1ccccc1` (stereo not given), inactive: -0.415%; as for `CCOC(=O)Nc1cccc([As](=O)(O)O)c1`, inactive: -2.73%.
Regarding `CCCCOc1ccc(C(=O)NCC2(N3CCCCC3)CCCCC2)cc1OC`, the inhibition was inactive: -13.6%.
On to `Cc1cc(SC(NC(=O)c2ccccc2)C(Cl)(Cl)Cl)nc(C(C)C)n1` (stereo not given), for which the inhibition was inactive: 4.87%.
With `CCOC(=O)Nc1ccc([As](=O)(O)O)c(O)c1`, the inhibition was inactive: -23.5%.
Take `CC1CCNP(=O)(N(CCCl)CCCl)O1` (stereo not given): the inhibition is inactive: -24.8%.
The value for `O=C(OC1CN2CCC1CC2)c1cccc2[nH]cnc12` (stereo not given) was inactive: -2.39%.
As for `CCN(CC)C(=S)SC(NC=O)C(Cl)(Cl)Cl` (stereo not given), the figure is inactive: 12%.
Turning to `CC(C)NC(=O)NP(=O)(Oc1ccccc1)Oc1ccccc1`, the inhibition was inactive: -22.1%.
As to `COc1ccccc1OP(C)(=O)Nc1cc(Cl)ccc1C` (stereo not given), the inhibition is inactive: -11.7%.
With `O=[N+]([O-])c1cc([N+](=O)[O-])c(-c2ccn[nH]2)s1`, the inhibition was inactive: -13.1%.
With `COc1ccc(OP(C)(=O)Nc2cccc(F)c2)cc1` (stereo not given), the inhibition was inactive: -14.9%.
The value for `Cc1cc(C)cc(OP(C)(N)=O)c1` (stereo not given) was inactive: -11%; that for `CCOC(=O)c1ccc(NP(C)(=O)Oc2ccccc2)cc1` (stereo not given) was inactive: -18.3%; that for `ClCCSc1nnc(-c2cccnc2)o1` was inactive: -24.4%.
As for `COc1ccccc1OP(C)(=O)Nc1ccc(C)cc1` (stereo not given), the figure is inactive: -5.5%; as for `CC(C)c1ccc(OP(=O)(Nc2ccccn2)Oc2ccccc2F)cc1` (stereo not given), inactive: 1.74%.
As for `Cc1ccc(NP(C)(=O)Oc2ccccc2)c(C)c1` (stereo not given), the figure is inactive: -13.6%.
With `COC(=O)C1(C)COP(=O)(N2CCCCCC2)OC1` (stereo not given), the inhibition was inactive: -10.1%.
On to `CC(C)(C)c1ccc(OP(C)(=O)Nc2ccc(SC(F)(F)F)cc2)cc1` (stereo not given), for which the inhibition was inactive: 2.59%.
As to `Cc1ccc(OP(=O)(Nc2ccc([N+](=O)[O-])cn2)Oc2ccc(C)cc2)cc1`, the inhibition was inactive: -5.23%.
`Cc1cccc(C)c1OP(C)(N)=O` (stereo not given): the inhibition is inactive: 12.5%.
With `Cc1ccc2nc3c(c(C)c2c1)CC(C(Cl)Cl)S3` (stereo not given), the inhibition was inactive: -23.2%.
As for `O=[N+]([O-])c1ccc2c(c1)C=Nc1ccccc1O2`, the figure is inactive: -0.96%.
In the case of `O=[N+]([O-])c1cc([N+](=O)[O-])c(Nc2cccnc2)c([N+](=O)[O-])c1`, the inhibition is inactive: 0.27%.
As for `C[As](=O)(O)c1cccc(C(=O)O)c1`, the figure is inactive: -11.1%.
Regarding `O=[As](O)(c1ccc(O)cc1)c1ccccc1O`, the inhibition is inactive: -13.6%.
The value for `COc1cc(C(=O)NCC2(N3CCOCC3)CCCCC2)ccc1OCC(C)C` was inactive: 1.12%; that for `O=[N+]([O-])c1ccc(-c2cc([N+](=O)[O-])c(O)c([N+](=O)[O-])c2)cc1` was inactive: -13.1%.
As for `O=[N+]([O-])c1cc(Oc2ccc([N+](=O)[O-])cc2C(F)(F)F)cc([N+](=O)[O-])c1`, the figure is inactive: -16.1%; as for `COc1ccc(N/C(=N/P(=O)(N2CCOCC2)N2CCOCC2)N2CCOCC2)cc1`, inactive: -16.4%; as for `O=P1(N(CCCl)CCCl)OCCCN1CCCl` (stereo not given), inactive: -18.8%.
The value for `O=P1(N(CCCl)CCCl)Nc2ccccc2N1` was inactive: -19.7%; that for `COc1ccc2nc(NP(=O)(c3ccccc3)c3ccccc3)sc2c1` was inactive: -19.2%.
Turning to `COc1cc(I)ccc1[As](=O)(O)O`, the inhibition was inactive: -13.1%.
For the compound `Cc1c2c(nc3ccccc13)SC(C(Cl)Cl)C2` (stereo not given), the inhibition was inactive: -23.2%.
`O=C(OC1CN2CCC1CC2)C12CC3CC(CC(C3)C1)C2` (stereo not given): the inhibition was inactive: -7.54%.
As to `CCN(CC)CCCOC(=O)C(O)(c1ccccc1)c1ccccc1`, the inhibition is inactive: -23.5%.
In the case of `Cc1cc(=O)[nH]c(N[N+](=O)[O-])n1`, the inhibition was inactive: 4.71%.
Consider `CCOP(=O)(Nc1cccc2ccccc12)OCC`, for which the inhibition was inactive: -26.8%.
Consider `CP(=O)(Nc1cccc(Br)c1)Oc1ccccc1` (stereo not given), for which the inhibition was inactive: -17.2%.
`Cc1cc(C)cc(OP(C)(=O)Nc2ccccn2)c1` (stereo not given): the inhibition is inactive: -16.9%.
The value for `Cc1ccc(NCCc2c([N+](=O)[O-])cc([N+](=O)[O-])cc2[N+](=O)[O-])cc1` was inactive: -16.9%; that for `CCCOP(=S)(Nc1nc(N)cc(=O)[nH]1)OCCC` was inactive: -18.2%; that for `Cc1ccc(C)c(NP(C)(=O)Oc2ccccc2)c1` (stereo not given) was inactive: -6.45%.
As for `O=[As](O)(c1cccc(O)c1)c1cccc(O)c1`, the figure is inactive: -16.7%; as for `Cc1cccc(OCC(=O)OC2CN3CCC2CC3)c1` (stereo not given), inactive: -1.69%.
